Laboratory results reported in publication PMC10653821, “Self-assembling Gn head ferritin nanoparticle vaccine provides full protection from lethal challenge of Dabie bandavirus in aged ferrets” (2023).

Biological target: DBV Gn head-ferritin nanoparticle
Assay: SEC

DBV Gn head-ferritin nanoparticle
stoichiometry N: 24
